Protein sequences can lack the tags named with them.
Biological target: T1, ZafA ZF3-6 (Aspergillus fumigatus) (UniProt Q4WT96)
T1 sequence (looked up): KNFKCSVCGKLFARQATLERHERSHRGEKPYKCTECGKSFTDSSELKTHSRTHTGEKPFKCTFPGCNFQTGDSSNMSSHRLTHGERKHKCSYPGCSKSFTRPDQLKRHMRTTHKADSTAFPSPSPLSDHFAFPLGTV
Experiment: EMSA
Settings: two shift steps, weaker than PzafA/PzrfC; EMSA buffer 25 mM Tris-HCl pH 8, 50 mM KCl, 1 mM MgCl2, 12.5% glycerol, 1 mM DTT, 0.2 ug BSA; protein dialyzed in buffer with 10 uM ZnCl2; 30 C; recombinant protein; residues 434-570

Sequence: TCGGACATAACGAACGACTCATTGGGGATCGCAGAATACCTGCTTGCCTGCTGGGTTTCTTGCCTTGCCACCAAGGTCCTCAATTGCGGATTCAAAATCCCTGCTACTGCGTTAACTGCGAGCGATCACACGACAGTCAAGCCTCTGACCTCGTTCTTATCACAGGCTTAGAAGTCTTAGTACTCAGCCTAAGTGAATCCTGTAGGGACCTTGAGGATCGTGATTTGTATTTTCCCACAGCTTGATCCAAGGGAGT (double strand) [PzrfB 256 bp EMSA fragment]
- binding result: binds
